{
  "source": "paper PMC5444859",
  "system": "influenza virus PB2 (influenza virus)",
  "experiment": "EMSA",
  "conditions": "5 mM MgCl2, 5 pmol protein, 0.4 pmol RNA; 5' cap added with capping enzymes (Cellscript); recombinant protein; label: 32P in cap (alpha-32P-GTP)",
  "note": "Construct, isoform or probe ends are uncertain for at least one entry.",
  "data": [
    {"sequence": "AAAAAAAAAAAAAAAAAAAAAAAAAAAAAAAAAAAAAAAA [capped polyA 40mer RNA]", "values": [
      {"measurement": "binding result", "value": "binds"}
    ]}
  ]
}
